Experimental data reported in PubChem BioAssay AID1430 (University of Pittsburgh Molecular Library Screening Center, 2008).
Only a part is listed here, and it is no random draw. Some salts or complexes appear as unconnected parts, following the source record. Active and inactive are the calls of the source.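 Rule for the calls: active = inhibition of 50% or more in the single-dose primary screen; inactive = inhibition below 50%.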

system: hexokinase 1 [Trypanosoma brucei]; assay: Trypanosoma brucei hexokinase 1 inhibitors, primary screen, biochemical, G6PDH-coupled NADH absorbance, MLSCN library (AID 1430); conditions: recombinant TbHK1, G6PDH-coupled NADH A340; at 10 µM; active compounds read high

Row | SMILES | inhibition
1 | Cc1ccccc1NP(C)(=O)Nc1ccccc1C | inactive: 3.61%
2 | CP(=O)(Nc1ccc2c(c1)OCCO2)Oc1ccccc1 (centres undefined) | inactive: -1.28%
3 | CCOP(C)(=S)SCC(=O)NC(C)(CC)C(=O)O (centres undefined) | inactive: 0.857%
4 | CP(=O)(Nc1ccc(SC(F)(F)F)cc1)Oc1ccc(F)cc1 (centres undefined) | inactive: -8.16%
5 | O=[N+]([O-])c1cc([N+](=O)[O-])c(NCC2CCS(=O)(=O)C2)c([N+](=O)[O-])c1 (centres undefined) | inactive: -25.6%
6 | Cc1cc(-c2cccc3ccccc23)c(C)cn1.O=[N+]([O-])c1cc([N+](=O)[O-])c(O)c([N+](=O)[O-])c1 | inactive: -37.9%
7 | O=[N+]([O-])c1ccc(OP2(=O)COCCO2)cc1 (centres undefined) | inactive: -4.31%
8 | COc1ccc(NP(C)(=O)Oc2ccccc2OC)cc1 (centres undefined) | inactive: -11.5%
9 | CN(C)CCOC(=O)C(O)(c1ccccc1)C1CCCCC1 (centres undefined) | inactive: 3.6%
10 | COc1ccc(OP(C)(=O)Nc2cccc(Br)c2)cc1 (centres undefined) | inactive: 1.7%
11 | CCCCCOc1ccc(NP(C)(=O)Oc2ccc(Cl)cc2Cl)cc1 (centres undefined) | inactive: -0.349%
12 | CP(=O)(Nc1ccccc1)Oc1ccc(F)cc1 (centres undefined) | inactive: 3.06%
13 | CCN(CC)CCCOC(=O)C(O)(c1ccccc1)C1CCCCC1 (centres undefined) | inactive: 7.81%
14 | COc1ccc(OP(C)(=O)Nc2ccc(SC(F)(F)F)cc2)cc1 (centres undefined) | inactive: -4.79%
15 | CCOC(=O)c1ccc(NP(C)(=O)Oc2ccc(F)cc2)cc1 (centres undefined) | inactive: -8.2%
16 | COc1ccc2c(c1O)-c1c(O)c(OC)cc3c1[C@H](C2)[N+](C)(C)CC3.O=[N+]([O-])c1cc([N+](=O)[O-])c([O-])c([N+](=O)[O-])c1[O-] | inactive: -56.3%
17 | O=C(OCCN1CCN(CCOCc2ccccc2)CC1)C(O)(c1ccccc1)c1ccccc1 | inactive: -8.42%
18 | O=C(OC1CN2CCC1CC2)c1ccc([N+](=O)[O-])cc1 (centres undefined) | inactive: -6.63%
19 | CC(C)c1ccc(OP(C)(=O)Nc2ccc(SC(F)(F)F)cc2)cc1 (centres undefined) | inactive: 3.66%
20 | CP(=O)(Nc1ccccc1F)Oc1ccccc1 (centres undefined) | inactive: 6.85%
21 | CCc1ccc(OP(C)(=O)O)cc1 | inactive: -4.78%

Row | SMILES | inhibition
22 | CP(=O)(Nc1ccccn1)Oc1ccccc1 (centres undefined) | inactive: -0.552%
23 | COc1ccccc1OP(C)(=O)Nc1ccc(C)cc1C (centres undefined) | inactive: -2.55%
24 | Cc1c(NP(C)(=O)Oc2ccc(C(C)C)cc2)c(=O)n(-c2ccccc2)n1C (centres undefined) | inactive: -0.368%
25 | O=[N+]([O-])c1cc([N+](=O)[O-])c(Nc2ccccn2)c([N+](=O)[O-])c1 | inactive: -17.9%
26 | CN(C)CCOC(=O)C(O)(c1ccccc1)C1CCCC1 (centres undefined) | inactive: -3.25%
27 | COc1ccc(OP(C)(=O)Nc2ccccn2)cc1 (centres undefined) | inactive: -4.14%
28 | COc1ccccc1OP(C)(=O)Nc1ccc(Br)cc1 (centres undefined) | inactive: -13.4%
29 | CP(=O)(Nc1ccc(Cl)cc1Cl)Oc1ccccc1 (centres undefined) | inactive: -3.17%
30 | CP(=O)(OCCOc1ccccc1)OCCOc1ccccc1 | inactive: -4.36%
31 | Cc1nc2ccc3ccccc3c2o1.O=[N+]([O-])c1cc([N+](=O)[O-])c(O)c([N+](=O)[O-])c1 | inactive: -23.4%
32 | COc1ccc(OP(C)(=O)Nc2ccccc2Br)cc1 (centres undefined) | inactive: -1.22%
33 | COc1ccccc1OP(C)(=O)Nc1ccc(C)c(C)c1 (centres undefined) | inactive: 4%
34 | Cc1cc(C)cc(OP(C)(=O)Nc2cccc(C(F)(F)F)c2)c1 (centres undefined) | inactive: 2.17%
35 | CP(=O)(OC12CC3CC(CC(C3)C1)C2)OC12CC3CC(CC(C3)C1)C2 | inactive: -7.65%
36 | CCOC(=O)c1ccc(NP(C)(=O)Oc2ccc(Cl)cc2)cc1 (centres undefined) | inactive: 0.181%
37 | CN(C)C(=O)c1c([N+](=O)[O-])cc([N+](=O)[O-])cc1[N+](=O)[O-] | inactive: 5.17%
38 | CP(=O)(Nc1ccc(Cl)cc1)Oc1ccc(F)cc1 (centres undefined) | inactive: 1.85%
39 | COc1ccccc1OP(C)(=O)Nc1ccccc1Br (centres undefined) | inactive: 3.7%
40 | CC(C)(C)c1ccc(OP(C)(=O)O)cc1 | inactive: 7.05%
41 | CP(=O)(Oc1ccccc1)N1CCOC1=O (centres undefined) | inactive: -5.56%
42 | CCc1ccc(OP(C)(=O)Nc2cccnc2)cc1 (centres undefined) | inactive: -0.238%

Row | SMILES | inhibition
43 | COc1ccccc1OP(C)(=O)Nc1c(C)n(C)n(-c2ccccc2)c1=O (centres undefined) | inactive: 1.57%
44 | O=C(OCCCN1CCCC1)C(O)(c1ccccc1)C1CCCCC1 (centres undefined) | inactive: -1.35%
45 | CCN(CC)CC(O)COC(=O)C(O)(c1ccccc1)C1CCCCC1 (centres undefined) | inactive: 4.5%
46 | COc1ccc(OP(C)(=O)Nc2ccc(Br)cc2)cc1 (centres undefined) | inactive: 34%
47 | CP(=O)(Nc1ccccn1)Oc1ccc(Cl)cc1 (centres undefined) | inactive: -9.18%
48 | CCOP(C)(=S)SCC(=O)NC(C)C(=O)O (centres undefined) | inactive: 5.84%
49 | CCOC(=O)c1ccc(NP(C)(=O)Oc2ccc(OC)cc2)cc1 (centres undefined) | inactive: 2.66%
50 | CP(=O)(NC(=O)Nc1ccccc1)Oc1ccccc1 (centres undefined) | inactive: -2.44%
51 | CCc1ccc(OP(C)(=O)N2CCN(c3ccc([N+](=O)[O-])cc3)CC2)cc1 (centres undefined) | inactive: -4.71%
52 | Cc1cc(C)cc(OP(C)(=O)Nc2ccc(SC(F)(F)F)cc2)c1 (centres undefined) | inactive: 1.71%
53 | CP(=O)(Nc1ccc(SC(F)(F)F)cc1)Oc1ccc(Cl)cc1 (centres undefined) | inactive: 6.7%
54 | Cc1cccc(C)c1OP(C)(=O)Nc1ccc(SC(F)(F)F)cc1 (centres undefined) | inactive: -2.77%
55 | CP(=O)(Oc1ccccc1)OC(c1ccccc1)C(F)(F)F (centres undefined) | inactive: -1.76%
56 | COc1ccccc1OP(C)(=O)Nc1ccccc1 (centres undefined) | inactive: -0.579%
57 | CP(=O)(Nc1ccccc1Br)Oc1ccccc1 (centres undefined) | inactive: 2.51%
58 | CP(=S)(Nn1cnnc1)Oc1ccccc1 (centres undefined) | inactive: -1.08%
59 | COc1ccccc1OP(C)(=O)Nc1cc(Cl)ccc1C (centres undefined) | inactive: -10.4%
60 | COc1ccc(OP(C)(=O)Nc2cccc(F)c2)cc1 (centres undefined) | inactive: -0.436%
61 | Cc1cc(C)cc(OP(C)(N)=O)c1 (centres undefined) | inactive: 0.615%
62 | CCOC(=O)c1ccc(NP(C)(=O)Oc2ccccc2)cc1 (centres undefined) | inactive: -3.02%
63 | COc1ccccc1OP(C)(=O)Nc1ccc(C)cc1 (centres undefined) | inactive: -5.85%

Row | SMILES | inhibition
64 | Cc1ccc(NP(C)(=O)Oc2ccccc2)c(C)c1 (centres undefined) | inactive: 2.4%
65 | CC(C)(C)c1ccc(OP(C)(=O)Nc2ccc(SC(F)(F)F)cc2)cc1 (centres undefined) | inactive: 22.9%
66 | Cc1cccc(C)c1OP(C)(N)=O (centres undefined) | inactive: -3.09%
67 | O=[N+]([O-])c1ccc2c(c1)C=Nc1ccccc1O2 | inactive: -8.82%
68 | CCN(CC)CCCOC(=O)C(O)(c1ccccc1)c1ccccc1 | inactive: -1.98%
69 | Cc1cc(C)cc(OP(C)(=O)Nc2ccccn2)c1 (centres undefined) | inactive: 3.84%
70 | CP(=O)(Nc1cccc(Br)c1)Oc1ccccc1 (centres undefined) | inactive: -0.911%
71 | Cc1ccc(C)c(NP(C)(=O)Oc2ccccc2)c1 (centres undefined) | inactive: -6.87%
72 | Cc1cc(C)cc(OP(C)(=O)Nc2ccc(C)cc2C)c1 (centres undefined) | inactive: -4.88%
73 | CCOC(=O)c1ccc(NP(C)(=O)Oc2cc(C)cc(C)c2)cc1 (centres undefined) | inactive: 37.5%
74 | COc1ccccc1OP(C)(=O)Nc1cccc(Br)c1 (centres undefined) | inactive: -0.501%
75 | CC1=NCCc2c1[nH]c1ccccc21.O=[N+]([O-])c1cc([N+](=O)[O-])c(O)c([N+](=O)[O-])c1 | inactive: -61.9%
76 | O=C(O)c1cccc(Nc2c([N+](=O)[O-])cc([N+](=O)[O-])cc2[N+](=O)[O-])c1 | inactive: -51.4%
77 | CCCOc1ccc(NP(C)(=O)Oc2ccc(Cl)cc2)cc1 (centres undefined) | inactive: -9.01%
78 | CP(=O)(Nc1ccc(SC(F)(F)F)cc1)Oc1ccccc1 (centres undefined) | inactive: 7.11%
79 | CN1CCCCC1COC(=O)C1(O)c2ccccc2CCc2ccccc21 (centres undefined) | inactive: 8.78%
80 | COc1ccccc1OP(C)(=O)Nc1c(C)cccc1C (centres undefined) | inactive: -0.228%
81 | O=[N+]([O-])c1cc([N+](=O)[O-])c(Nc2nnnn2CCO)c([N+](=O)[O-])c1 | inactive: -19.8%
82 | CCOC(=O)C(CC)C1=NC(C)(C)Cc2ccccc21.O=[N+]([O-])c1cc([N+](=O)[O-])c(O)c([N+](=O)[O-])c1 (centres undefined) | inactive: -39%
83 | Cc1nc2ccc3ccccc3c2s1.O=[N+]([O-])c1cc([N+](=O)[O-])c(O)c([N+](=O)[O-])c1 | inactive: -25.2%
84 | O=[N+]([O-])c1cc([N+](=O)[O-])c(-n2nnc3ccccc32)c([N+](=O)[O-])c1 | inactive: -24.3%
